Patent US20140213506A1, “THYMOSIN ALPHA PEPTIDE FOR PREVENTING, REDUCING THE SEVERITY OF, AND TREATING INFECTION” (priority 2011, published 2014)

Chains of the proteins cited; added tags and fusions are not shown. Lines headed by an entry give the natural chain unless they say otherwise; changes in a name come on top.
UniProt P06454: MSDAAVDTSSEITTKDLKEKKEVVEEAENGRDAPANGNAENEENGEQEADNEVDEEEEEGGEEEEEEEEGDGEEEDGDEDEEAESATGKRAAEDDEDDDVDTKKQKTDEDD

Test system: H1N1 influenza
Assay: Microneutralization (MN) test after H1N1 vaccination (Focetria) in hemodialysis patients
[1] = Day 21 MN test, Only Subjects negative at the baseline
[2] = Day 21 MN test, Only Subjects negative at the baseline (MN titer < 1:10)
[3] = Day 21 MN test, Only Subjects non-protected at the baseline
[4] = Day 21 MN test, Only Subjects received 2 doses of vaccine
[5] = Day 21 MN test, Only Subjects who received 1 vaccine dose
[6] = Day 21 MN test, Overall Population
[7] = Day 21 MN test, Overall Population, day x/day 0 geometric mean MN titer
[8] = Day 42 MN test, Only Subjects negative at the baseline
[9] = Day 42 MN test, Only Subjects non-protected at the baseline
[10] = Day 42 MN test, Only Subjects received 2 doses of vaccine
[11] = Day 42 MN test, Only Subjects who received 1 vaccine dose
[12] = Day 42 MN test, Overall Population
[13] = Day 84 MN test, Only Subjects negative at the baseline
[14] = Day 84 MN test, Only Subjects non-protected at the baseline
[15] = Day 84 MN test, Only Subjects received 2 doses of vaccine
[16] = Day 84 MN test, Only Subjects who received 1 vaccine dose
[17] = Day 84 MN test, Overall Population

## V + T3.2: H1N1 vaccine plus two injections of thymalfasin (TA1), 3.2 mg seven days prior to vaccination and on the day of vaccination (Ac-SDAAVDTSSEITTKDLKEKKEVVEEAEN; UniProt P06454 2-29, looked up)
[1]
  GMR: 2.08
[2]
  Percent with MN ≧ 1:20: 33.3%
[3]
  GMR: 2.00
  Percent with MN ≧ 1:20: 40%
  Percent with SC: 28%
[4]
  GMR: 1.00
  Percent with MN ≧ 1:20: 0%
[5]
  GMR: 2.1
  Percent with MN ≧ 1:20: 50%
  Percent with SC: 26.9%
[6]
  Percent with MN ≧ 1:20: 46.4%
  Percent with SC: 25%
[7]
  GMR: 1.95
[8]
  GMR: 1.68
  Percent with MN ≧ 1:20: 22.2%
[9]
  GMR: 1.74
  Percent with MN ≧ 1:20: 32%
  Percent with SC: 20%
[10]
  GMR: 1.00
  Percent with MN ≧ 1:20: 0%
[11]
  GMR: 1.8
  Percent with MN ≧ 1:20: 42.3%
  Percent with SC: 15.4%
[12]
  GMR: 1.72
  Percent with MN ≧ 1:20: 39.3%
  Percent with SC: 17.6%
[13]
  GMR: 1.71
  Percent with MN ≧ 1:20: 22.2%
[14]
  GMR: 1.62
  Percent with MN ≧ 1:20: 28%
  Percent with SC: 20%
[15]
  GMR: 1.00
  Percent with MN ≧ 1:20: 0%
[16]
  GMR: 1.68
  Percent with MN ≧ 1:20: 38.5%
  Percent with SC: 19.2%
[17]
  GMR: 1.62
  Percent with MN ≧ 1:20: 35.7%
  Percent with SC: 17.6%

## V + T6.4: H1N1 vaccine plus two injections of thymalfasin (TA1), 6.4 mg seven days prior to vaccination and on the day of vaccination (Ac-SDAAVDTSSEITTKDLKEKKEVVEEAEN; UniProt P06454 2-29, looked up)
[1]
  GMR: 2.88
[2]
  Percent with MN ≧ 1:20: 47.4%
[3]
  GMR: 2.65
  Percent with MN ≧ 1:20: 55.6%
  Percent with SC: 40.7%
[4]
  GMR: 1.00
  Percent with MN ≧ 1:20: 50%
[5]
  GMR: 2.61
  Percent with MN ≧ 1:20: 63.3%
  Percent with SC: 36.7%
[6]
  Percent with MN ≧ 1:20: 62.5%
  Percent with SC: 31.6%
[7]
  GMR: 2.46
[8]
  GMR: 2.54
  Percent with MN ≧ 1:20: 52.6%
[9]
  GMR: 2.42
  Percent with MN ≧ 1:20: 59.3%
  Percent with SC: 44.4%
[10]
  GMR: 1.00
  Percent with MN ≧ 1:20: 50%
[11]
  GMR: 2.46
  Percent with MN ≧ 1:20: 66.7%
  Percent with SC: 43.3%
[12]
  GMR: 2.33
  Percent with MN ≧ 1:20: 65.6%
  Percent with SC: 40.6%
[13]
  GMR: 2.42
  Percent with MN ≧ 1:20: 50%
[14]
  GMR: 2.40
  Percent with MN ≧ 1:20: 60%
  Percent with SC: 44%
[15]
  GMR: 1.19
  Percent with MN ≧ 1:20: 50%
[16]
  GMR: 2.42
  Percent with MN ≧ 1:20: 67.9%
  Percent with SC: 42.9%
[17]
  GMR: 2.32
  Percent with MN ≧ 1:20: 66.7%
  Percent with SC: 40%

No end group written: not given here.
